Measured values from several laboratories, pooled; numbers as filed in NIAID ChemDB.

Common to all: growth or infection tests; organism: HIV-1; read by: cytopathic effect; endpoint: EC50

An empty or dashed field is not shown. ECn: concentration that inhibits the pathogen or its effect by n%. Neighbouring rows are from separate reports.

| smiles | strain or isolate | changes | conditions | cell line | value |
|---|---|---|---|---|---|
| CC(C)=CCN1Cc2cccc3[nH]c(=S)n(c23)C[C@@H]1C | TIBO-RS |  |  | MT-2 | >10 µM |
| O=c1[nH]c2ccc(Cl)cc2n1Cc1c(F)cccc1F |  | RT-K103N |  | CEM | >20 µM |
| Cc1cn([C@@H]2O[C@H](CO[Si](C)(C)C(C)(C)C)C3(OS(=O)(=O)C=C3N)[C@H]2O[Si](C)(C)C(C)(C)C)c(=O)n(C)c1=O | IIIB WT |  |  | CEM | 0.058 µM |
| CCN1c2ncccc2N(C)C(=S)c2sc3cccnc3c21 | MN |  |  | C8166 | 0.0025 µM |
| Cc1cn([C@H]2C[C@H](N=[N+]=[N-])[C@@H](CO)O2)c(=O)[nH]c1=O | NI-10.93 (HXB2 RT T69N K70R Q151M) | RT-T69N K70R Q151M |  | MT-4 | 0.628 µM |
| Cc1cn([C@H]2C[C@H](N=[N+]=[N-])[C@@H](CO)O2)c(=O)[nH]c1=O | IIIB WT |  |  | CEM | 0.003 µM |
| Fc1cccc(F)c1C1SCc2nc3ccccc3n21 |  | RT-E138K |  | CEM | 1.73 µM |
| O=c1[nH]c(=S)[nH]c2c1C(c1ccc(Cl)cc1)c1c([nH]c(=S)[nH]c1=O)O2 | L1 |  |  | MT-4 | 101 µM |
| CCOCn1c(Cc2ccccc2)c(C(C)C)c(=O)[nH]c1=O | D-3 (RT-V108I M184I) | RT-V108I M184I |  | CEM | 0.015 µg/mL |
| Nc1ccn([C@H]2CC[C@@H](CO)O2)c(=O)n1 | BI-12.96 (HXB2(RT-A62V S68G T69D V75I F77L F116Y Q151M)) | RT-A62V S68G T69D V75I F77L F116Y Q151M |  | MT-4 | >20 µM |
| CC(C)=CCN1Cc2cccc3[nH]c(=S)n(c23)C[C@@H]1C | IIIB |  |  | MT-2 | 0.2 µM |
| CC(C)=CCN1Cc2cc(Cl)cc3[nH]c(=S)n(c23)C[C@@H]1C | MN |  |  | C8166 | 0.0018 µM |
| Cc1cn([C@@H]2O[C@H](CO[Si](C)(C)C(C)(C)C)C3(OS(=O)(=O)C=C3N)[C@H]2O[Si](C)(C)C(C)(C)C)c(=O)n(C)c1=O | IIIB | RT-K103N |  | CEM | 0.11 µg/mL |
| O=C(N[C@H]1c2ccccc2C[C@H]1O)[C@H](OCc1ccccc1)[C@H](O)[C@@H](O)[C@@H](OCc1ccccc1)C(=O)N[C@H]1c2ccccc2C[C@H]1O |  |  |  | MT-4 | 0.1 µM |
| Cc1cc(C)nc(N2C(=O)CSC2c2c(F)cccc2F)n1 | IIIB |  |  | MT-4 | 0.171 µM |
| O=C(O)P(=O)(O)O | IIIB |  |  | MT-2 | 19.9 µM |
| Cc1cn([C@H]2C[C@H](N=[N+]=[N-])[C@@H](CO)O2)c(=O)[nH]c1=O | LAV-1 |  | 14 d | CEM | 0.1 µM |
| Cc1ccnc2c1NC(=O)c1cccnc1N2C1CC1 | R82150 (RT-L100I) | RT-L100I |  | MT-2 | 0.3 µM |
| CC[C@H]1C(=O)Nc2ccc(F)cc2N1C(=O)OC(C)C | IIIB WT |  |  | CEM | 0.0021 µM |
| CC(C)=CCOc1cc(NC(=S)c2ccsc2C)ccc1Cl | IIIB | RT-L100I |  | CEM | 0.006 µg/mL |
| O=c1[nH]c2c(c(=O)[nH]1)C(c1ccccc1)c1c([nH]c(=O)[nH]c1=O)O2 | IIIB |  |  | MT-4 | 170 µM |
| CC(C)Nc1cccnc1N1CCN(C(=O)c2cc3cc(NS(C)(=O)=O)ccc3[nH]2)CC1 | DI-06.92 (HXB2 RT-K70R) | RT-K70R |  | MT-4 | 0.02 µM |
| COc1nc(=O)[nH]c2c1C(c1ccc(Cl)cc1)c1c(OC)nc(=O)[nH]c1O2 | IIIB |  |  | MT-4 | >347 µM |
| CC(C)Nc1cccnc1N1CCN(C(=O)c2cc3cc(NS(C)(=O)=O)ccc3[nH]2)CC1 | IIIB | RT-L100I |  | CEM | 0.46 µg/mL |
| Cc1ccnc2c1NC(=O)c1cccnc1N2C1CC1 | TIBO-RS |  |  | MT-2 | 4.2 ± 2.2 µM |
| CCN1c2cc(C)c(C)cc2N(C)S(=O)(=O)c2cccnc21 | IIIB |  |  | MT-4 | 0.2 µM |
| [N-]=[N+]=N[C@H]1C[C@H](n2cnc3c(OCc4ccccc4)nc(N)nc32)O[C@@H]1CO | IIIB |  |  | MT-4 | 8 µM |
| O=c1[nH]c2c(c(=O)[nH]1)C(c1ccc(I)cc1)c1c([nH]c(=O)[nH]c1=O)O2 | IIIB |  |  | MT-4 | >276 µM |
| CCN1c2ncccc2N(C)C(=S)c2oc3cccnc3c21 | IIIB |  |  | CEM | 0.03 µM |
| CCCCCCCSc1nsc(NC(=O)Nc2ccccc2)n1 | NL4-3 | AMD3100-resistant |  | MT-4 | 19.1 µM |
| O=C1CSC(c2c(F)cccc2Cl)N1c1ncccn1 | IIIB |  |  | MT-4 | 0.581 µM |
| Cc1cn([C@H]2C[C@H](N=[N+]=[N-])[C@@H](CO)O2)c(=O)[nH]c1=O | IIIB |  |  | MT-2 | 0.07 µM |
| Nc1nc(=O)n([C@@H]2CS[C@H](CO)O2)cc1F | LAV-1 |  |  | CEM(TK-) + CEM TK- | 0.03 µM |
| COc1nc(=O)[nH]c2c1C(c1ccc(Br)cc1)c1c(OC)nc(=O)[nH]c1O2 | L1 |  |  | MT-4 | >309 µM |
| [N-]=[N+]=N[C@H]1C[C@H](n2cnc3c(NCCc4ccccc4)nc(N)nc32)O[C@@H]1CO | IIIB |  |  | MT-4 | 21 µM |
| CCc1c([Se]c2ccccc2)n(COCc2ccccc2)c(=O)[nH]c1=O | Nevirapine-resistant |  |  | MT-2 | 0.38 ± 0.22 µM |
| CC(C)=CCOc1cc(NC(=S)c2ccoc2C)ccc1Cl | IIIB | RT-L100I |  | CEM | 0.008 µg/mL |
| Cc1cn([C@H]2C[C@H](N=[N+]=[N-])[C@@H](CO)O2)c(=O)[nH]c1=O | A-0 (RT-L100I) | RT-L100I |  | CEM | 0.0128 µM |
| CC(C)(C)NC(=O)c1ccccc1NC[C@H](O)[C@H](Cc1ccccc1)NC(=O)[C@H](CC(N)=O)NC(=O)c1ccc2ccccc2n1 |  |  |  | MT-4 | 10.12 µM |
| [N-]=[N+]=N[C@H]1C[C@H](n2cnc3c(=S)nc(N)[nH]c32)O[C@@H]1CO | IIIB |  |  | MT-4 | >32 µM |
| CC[C@H]1C(=O)Nc2ccc(F)cc2N1C(=O)OC(C)C | Y-1 (RT-K103N) | RT-K103N |  | CEM | 0.051 µg/mL |
| [N-]=[N+]=N[C@H]1C[C@H](n2cnc3c(OC4CCC4)nc(N)nc32)O[C@@H]1CO | IIIB |  |  | MT-4 | 15 µM |
| CNC(=O)C(NC(=O)[C@H](OCc1ccc(-c2cccc([N+](=O)[O-])c2)cc1)C(O)C(O)[C@@H](OCc1ccc(-c2cccc([N+](=O)[O-])c2)cc1)C(=O)NC(C(=O)NC)C(C)C)C(C)C |  |  |  | MT-4 | 0.16 µM |
| Cc1cn([C@H]2C[C@H](C#N)[C@@H](CO)O2)c(=O)[nH]c1=O | RF |  |  | C8166 | >100 µg/mL |
| CC(C)CN(C[C@@H](O)[C@H](Cc1ccccc1)NC(=O)O[C@H]1CCOC1)S(=O)(=O)c1ccc(N)cc1 |  |  |  | MT-4 | 0.08 µM |
| COc1cc(C)nc(N2C(=O)CSC2c2c(Cl)cccc2Cl)n1 |  | RT-Y181C |  | CEM | 6.75 µM |

3 of the rows above, restated:

{"smiles": "[N-]=[N+]=N[C@H]1C[C@H](n2cnc3c(OC4CCC4)nc(N)nc32)O[C@@H]1CO", "strain or isolate": "IIIB", "cell line": "MT-4", "value": "15 µM"}
{"smiles": "Cc1cn([C@H]2C[C@H](C#N)[C@@H](CO)O2)c(=O)[nH]c1=O", "strain or isolate": "RF", "cell line": "C8166", "value": ">100 µg/mL"}
{"smiles": "CC[C@H]1C(=O)Nc2ccc(F)cc2N1C(=O)OC(C)C", "strain or isolate": "Y-1 (RT-K103N)", "changes": "RT-K103N", "cell line": "CEM", "value": "0.051 µg/mL"}